# PubChem BioAssay AID504761 – Drosophila RNAi Screening Center, 2011
# Assay: 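Fly genes whose silencing reduces dengue virus type 2 infection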 (primary screen)
# Cell system: D.Mel-2 cells from Drosophila
# Reagents: long dsRNA against Drosophila genes
# Challenge: infection with dengue virus type 2; dose and infection time not stated
# Detection: 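Per well on two replicate plates, imaging gave the percent of cells positive for viral envelope protein, ranked by infection, and a nuclear count of cells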
# Scale: infection score: higher = more virus-infected cells; cell count: higher = more cells in the well
# Rule for the call: 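Very low infection ranking in both replicate wells (chance probability at most 0.065), then a retest showing infection dropped 1.5-fold or more at p below 0.05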
# Calls: active = confirmed: knock-down lowers infection; inactive = not picked or not confirmed
# The deposit covers about 22,000 reagents; below is an unselected part of those with a known target gene and a result. In the full data, 116 (0.52%) are marked active. 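Calls depend on retest data that are not deposited; infection was ranked per plate without normalising between plates; the unit of the infection score is not given.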 Raw values are not corrected between plates. Entries without a mark were called inactive. Names joined by + are all predicted targets of the reagent. Not stated in the record: the amount of reagent, the time to read-out.
Target gene,dsRNA,"infection score, replicate 1","infection score, replicate 2","cell count, replicate 1","cell count, replicate 2"
ND-B15 (NADH dehydrogenase (ubiquinone) B15 subunit),DRSC06199,22.3,16.8,5515,5533
CG5167,DRSC15728,7.71,20.6,6695,5989
uno (univalents only),DRSC07244,2.56,13.5,5901,6570
uno (univalents only),DRSC28407,9.56,7.32,4205,2651
CG15695,DRSC15117,0.84,9.51,6884,6150
CG15695,DRSC29582,0.68,9.64,438,1536
CG32755,DRSC18397,4.45,5.81,1865,6695
CG32755,DRSC27494,0.13,6.35,6857,6862
Proc-R (Proctolin receptor),DRSC18410,,26.2,455,3810
CG15628,DRSC00256,3.65,3.34,4632,4697
CG15628,DRSC00463,30.4,20,6651,6844
CG32483,DRSC07902,1.01,3.58,6364,6648
pug (pugilist),DRSC17036,6.84,26.5,6154,4020
pug (pugilist),DRSC29896,24.3,7.19,5887,6449
CG18545,DRSC15343,13.4,10.3,6224,4765
Raf (Raf oncogene),DRSC18821,3.35,4.06,6300,6645
Raf (Raf oncogene),DRSC23311,2.5,3.8,6207,6347
CG17568,DRSC02628,,13.9,605,6719
Lsm11,DRSC06238,6.25,9.48,6237,7068
Ir68a (Ionotropic receptor 68a),DRSC10599,2.41,0.6,5925,6192
Als2 (Amyotrophic lateral sclerosis 2),DRSC11806,6.47,11.4,6508,6273
CG13930,DRSC08399,3.27,3.87,5683,6258
CG13930,DRSC28494,11.3,,1605,349
CG6034,DRSC10572,4.93,1.54,6497,6422
CG6034,DRSC27294,36.4,0.22,5422,461
CG30357,DRSC22472,1.36,11.8,7282,5785
CG13244,DRSC21642,5.67,14.9,5574,5308
CG5850,DRSC02905,13.8,18.7,6028,6147
CG5196,DRSC15735,12.9,26.1,6919,4797
CG5196,DRSC26959,5.75,6.74,6539,6568
CG14717,DRSC14940,2.06,3.16,6759,6543
CG15459,DRSC20530,6.54,6.19,6041,6345
CG15459,DRSC21383,2.8,2.64,5929,6059
CG15459,DRSC27861,0.84,16.9,6090,5045
Prim1 (DNA primase subunit 1),DRSC11137,1.25,1.45,5185,5663
lncRNA:sphinx + ATPsynF,DRSC17191,6.18,3.51,5004,4472
Apc2 (Adenomatous polyposis coli 2),DRSC14115,11.3,12.7,6555,6428
Mf (Myofilin),DRSC16120,1.21,8.29,5435,4991
mRpL28 (mitochondrial ribosomal protein L28),DRSC02724,14.2,25.9,4341,4151
trk (trunk),DRSC03625,3.29,2.71,5949,6456
Arp5 (Actin-related protein 5),DRSC16350,28.9,26.2,5490,6257
Arp5 (Actin-related protein 5),DRSC28688,12.4,0.21,3389,466
CG3927,DRSC04433,22.2,32.8,4590,5575
CG3927,DRSC22813,2.89,2.57,6462,6308
Abp1 (Actin binding protein 1),DRSC09693,0.44,1.13,6837,6367
ck (crinkled),DRSC03509,10.1,4.63,5974,5944
Cep135 (Centrosomal protein 135kDa),DRSC09345,0.69,0.33,5920,6322
Cep135 (Centrosomal protein 135kDa),DRSC10244,3.93,9.58,6161,6545
Dbp80 (Dead box protein 80),DRSC22034,9.14,5.52,6246,5792
Egfr (Epidermal growth factor receptor),DRSC03871,1.45,7.21,5453,5491
Egfr (Epidermal growth factor receptor),DRSC04613,17.6,42.7,6885,5082
CG12436 (retired record) + CG42514,DRSC26599,1.03,1.8,6436,6014
Tsen34 (tRNA splicing endonuclease subunit 34),DRSC22932,2.03,3.89,6793,6942
Axn (Axin),DRSC14120,12.8,2.97,5479,5386
Axn (Axin),DRSC29423,12.1,,3841,379
CG18268 + CG3014,DRSC15319,8.56,24.7,6188,4201
Gel (Gelsolin),DRSC12350,15.8,34,4055,4600
Gel (Gelsolin),DRSC24569,0.48,0.67,6443,6083
